Anti-infective test results gathered from many reports (values: NIAID ChemDB through PubChem).

Common to all: whole-cell or culture tests; organism: Measles virus; endpoint: EC50

ECn is the concentration giving n% inhibition of infection, replication or growth.

{"smiles": "CCNc1nc(=O)c2ncn([C@@H]3O[C@H](CO)[C@@H](O)[C@H]3O)c2c(=O)[nH]1", "cell line": "HepG2.2.15", "method": "neutral red", "result": "1.2 µM"}
{"smiles": "C#Cc1c(C(N)=O)ncn1[C@@H]1O[C@H](CO)[C@@H](O)[C@H]1O", "strain or isolate": "Edmonston", "cell line": "VERO", "method": "plaque count", "result": "1.51 µg/mL"}
{"smiles": "NC(=O)c1c[se]c([C@@H]2O[C@H](CO)[C@@H](O)[C@H]2O)n1", "strain or isolate": "Edmonston", "cell line": "HeLa", "method": "cytopathic effect", "result": "2 µg/mL"}
{"smiles": "CC[C@@H](C(C)C)[C@@H](O)[C@H](O)[C@@H](C)[C@H]1CC[C@H]2[C@@H]3CC(=O)[C@@]4(O)C[C@@H](O)CC[C@]4(C)[C@H]3CC[C@]12C", "strain or isolate": "MV/Brazil/001/91", "cell line": "VERO", "method": "plaque count", "result": "30 µM"}
{"smiles": "CCCSc1nsc(-c2ccccc2)c1C(=O)OC", "strain or isolate": "Edmonston", "cell line": "HEP-2", "method": "plaque count", "result": ">50 µg/mL"}
{"smiles": "Cc1cn([C@@H]2C[C@@H](O)[C@H](CO)O2)c(=O)[nH]c1=O", "cell line": "CV-1", "result": ">100 µM"}
{"smiles": "CC[C@@H](C(C)C)[C@@H](O)[C@H](O)[C@@H](C)[C@H]1CC[C@H]2[C@@H]3CC(=O)[C@@]4(O)C[C@@H](OC(C)=O)CC[C@]4(C)[C@H]3CC[C@]12C", "strain or isolate": "MV/Brazil/001/91", "cell line": "VERO", "method": "plaque count", "result": "21 µM"}
{"smiles": "Nc1ccn([C@@H]2C[C@@H](O)[C@H](CO)O2)c(=O)n1", "cell line": "CV-1", "result": ">100 µM"}
{"smiles": "OC[C@H]1O[C@@H]2O[C@H]3[C@H](O)[C@@H](O)[C@@H](O[C@H]4[C@H](O)[C@@H](O)[C@@H](O[C@H]5[C@H](O)[C@@H](O)[C@@H](O[C@H]6[C@H](O)[C@@H](O)[C@@H](O[C@H]7[C@H](O)[C@@H](O)[C@@H](O[C@H]8[C@H](O)[C@@H](O)[C@@H](O[C@H]1[C@H](O)[C@H]2O)O[C@@H]8CO)O[C@@H]7CO)O[C@@H]6CO)O[C@@H]5CO)O[C@@H]4CO)O[C@@H]3CO", "strain or isolate": "Edmonston", "cell line": "VERO", "method": "plaque count", "result": ">2560 µM"}
{"smiles": "CSc1nsc(-c2ccccc2)c1C(=O)O", "strain or isolate": "Edmonston", "cell line": "HEP-2", "method": "plaque count", "result": ">500 µg/mL"}
{"smiles": "Nc1cc2[nH]cnc2c(=O)[nH]1", "strain or isolate": "Sugiyama", "cell line": "VERO", "method": "plaque count", "result": "1.23 µg/mL"}
{"smiles": "Nc1ccn([C@@H]2C[C@@H](O)[C@H](CO)O2)c(=O)n1", "cell line": "CV-1", "result": ">100 µM"}
{"smiles": "CC[C@H](/C=C/[C@@H](C)[C@H]1CC[C@H]2[C@@H]3CC(=O)[C@@]4(O)C[C@@H](O)CC[C@]4(C)[C@H]3CC[C@]12C)C(C)C", "strain or isolate": "MV/Brazil/001/91", "cell line": "VERO", "method": "plaque count", "result": "585 µM"}
{"smiles": "N#Cc1c(SCCO)nsc1-c1ccccc1", "strain or isolate": "Edmonston", "cell line": "HEP-2", "method": "plaque count", "result": ">5 µg/mL"}
{"smiles": "Cc1cn([C@@H]2C[C@@H](O)[C@H](CO)O2)c(=O)[nH]c1=O", "cell line": "CV-1", "result": ">100 µM"}
{"smiles": "N#Cc1c(SCCCCBr)nsc1-c1ccccc1", "strain or isolate": "Edmonston", "cell line": "HEP-2", "method": "plaque count", "result": ">25 µg/mL"}
{"smiles": "Nc1ccn([C@@H]2C[C@H](CO)[C@@H](O)[C@H]2O)c(=O)n1", "strain or isolate": "Niigata-1", "cell line": "VERO", "method": "plaque count", "result": "0.95 µg/mL"}
{"smiles": "CSc1nsc(-c2ccccc2)c1C#N", "strain or isolate": "Edmonston", "cell line": "HEP-2", "method": "plaque count", "result": ">20 µg/mL"}
{"smiles": "Nc1nc2c(ncn2CCOCP(=O)(O)O)c(=O)[nH]1", "strain or isolate": "Chicago", "method": "cytopathic effect", "result": "0.03 µg/mL"}
{"smiles": "CCOC(=O)CSc1nsc(-c2ccccc2)c1C#N", "strain or isolate": "Edmonston", "cell line": "HEP-2", "method": "plaque count", "result": ">200 µg/mL"}
{"smiles": "Nc1ncnc2c1ccn2[C@@H]1O[C@H](CO)[C@@H](O)[C@H]1O", "strain or isolate": "Niigata-1", "cell line": "VERO", "method": "plaque count", "result": ">0.64 µg/mL"}
{"smiles": "CCCSc1nsc(-c2ccccc2)c1C(N)=O", "strain or isolate": "Edmonston", "cell line": "HEP-2", "method": "plaque count", "result": ">300 µg/mL"}
{"smiles": "NC(=O)c1ncn([C@@H]2O[C@H](CO)[C@@H](O)[C@H]2O)n1", "strain or isolate": "BIL", "cell line": "CV-1", "method": "cytopathic effect", "result": "100 µg/mL"}
{"smiles": "N#Cc1c(SCCCBr)nsc1-c1ccccc1", "strain or isolate": "Edmonston", "cell line": "HEP-2", "method": "plaque count", "result": ">25 µg/mL"}
{"smiles": "NC(=O)c1ncn([C@@H]2O[C@H](CO)[C@@H](O)[C@H]2O)n1", "strain or isolate": "Kitaken-1", "cell line": "VERO", "method": "plaque count", "result": "6.8 µg/mL"}
{"smiles": "COC(=O)c1c(SC)nsc1-c1ccccc1", "strain or isolate": "Edmonston", "cell line": "HEP-2", "method": "plaque count", "result": ">100 µg/mL"}
{"smiles": "OCC1OC2OC3C(CO)OC(OC4C(CO)OC(OC5C(CO)OC(OC6C(CO)OC(OC7C(CO)OC(OC8C(CO)OC(OC9C(CO)OC(OC1C(O)C2O)C(O)C9O)C(O)C8O)C(O)C7O)C(O)C6O)C(O)C5O)C(O)C4O)C(O)C3O", "strain or isolate": "CAM/RB", "cell line": "VERO", "method": "plaque count", "result": ">2560 µM"}

Neighbouring rows are from separate reports.